This is an account of results in US11013249B2, “Compositions for controlled release of volatile compounds” (University of Guelph, priority 2016, dated 2021).

In the series the test system is mung bean sprouts. Description: Mung bean sprouts sealed in 1 L glass jars with antimicrobial compounds at 4° C. Details: species or system Mung bean (Vigna radiata). The settings on record: low concentration: AITC <1.5 mg/L, diacetyl <8 mg/L.

Regarding `CC(=O)C(C)=O` [Diacetyl, 2,3-butanedione], the “respiration rates of the sprouts” value is given as “higher than the untreated control”.
